Pooled drug test results. Numbers come from NIAID ChemDB, via PubChem.

Common to all: tests in culture; organism: Herpes simplex virus 1; method: virus yield; read-out: EC50

ECn is the concentration giving n% inhibition of infection, replication or growth. An empty or dashed field is not shown. Rows are shuffled and stem from different studies.

compound,strain or isolate,cells,result
COc1cccc2c1C(=O)c1c(O)c3c(c(O)c1C2=O)C[C@@](O)(C(C)=O)C[C@@H]3O[C@H]1C[C@H](N)[C@H](O)[C@H](C)O1,-,VERO,>1 µM
COc1ccc2sc3c(c2c1)SCCNC3=O,-,-,0.35 µM
OC[C@H]1O[C@@H](c2cc(Br)nc3cc(Cl)c(Cl)cc23)C(O)C1O,-,HFF,<37 µM
NC(N)=N/N=C1/C/C(=N\N=C(N)N)c2cc3ccccc3cc21,13 (S11),HEP-2,5 µM
Nc1nc2c(ncn2COCCO)c(=O)[nH]1,7401H,VERO,0.35 µg/mL
O=C1Nc2ccc(I)cc2C1=O,-,VERO,>50 µM
O=c1ccn([C@H]2C[C@H](O)[C@@H](CO)O2)c(=O)[nH]1,-,HeLa,<50 µM
O=C1C(=O)N([C@@H]2O[C@H](COCc3ccccc3)[C@@H](OCc3ccccc3)[C@H]2OCc2ccccc2)c2ccc(F)cc21,-,VERO,>50 µM
CCN(CC)CCCOc1c2ccoc2cc2oc(=O)ccc12,Clinical isolate,VERO,3.6 µg/mL
Cc1ccc2c(c1)C(=O)C(=O)N2[C@@H]1O[C@H](COCc2ccccc2)[C@@H](OCc2ccccc2)[C@H]1OCc1ccccc1,-,VERO,>50 µM
Fc1cccc2nc3c(cnc4c3cnn4-c3ccccc3)c(Cl)c12,-,VERO,0.07 µM
O=c1[nH]c(=O)n([C@@H]2O[C@H](CO)[C@@H](O)[C@@H]2O)cc1/C=C/Br,KOS,E6SM,1 µM
Nc1ncnc2c1c(Br)cn2COC(CO)CO,-,HFF,<17 µM
Cc1cn([C@H]2C[C@H](O)[C@@H](CO)O2)c(=O)nc1N,-,HeLa,<32 µM

A second listing of 2 rows from above:

O=C1C(=O)N([C@@H]2O[C@H](COCc3ccccc3)[C@@H](OCc3ccccc3)[C@H]2OCc2ccccc2)c2ccc(F)cc21 ; cells: VERO ; result: >50 µM
Cc1cn([C@H]2C[C@H](O)[C@@H](CO)O2)c(=O)nc1N ; cells: HeLa ; result: <32 µM